Test results as given in patent US20170189529A1 (CONTRAFECT, published 2017).

Legend:
[1] = molecular target: recombinant HA of influenza A H1 A/California/09 (influenza A virus H1 A/California/09); test: recombinant HA ELISA (AttoPhos fluorescence, mean of triplicates)
[2] = molecular target: recombinant HA of influenza A H3 A/Sydney/97 (influenza A virus H3 A/Sydney/97); test: as above
[3] = molecular target: H1 California 07/09 HA trimer (influenza A virus H1 California 07/09)
[4] = molecular target: hemagglutinin of influenza A virus A/VNH5N1-PR8/CDC-RG (H5), on virus (influenza A virus H5 A/VNH5N1-PR8/CDC-RG); test: cell-based or functional assay

Binder | fold reactivity over background [1] | fold reactivity over background [2] | Kd [3] | koff [3] | kon [3] | IC50 (ug/ml), MDCK monolayer microneutralization assay [4]
TRL842 (antibody, V domains shown) VH: QVQLLESGGDVVQPGTSLRLSCAASGFSLWTSGMHWVRQAPGKGLEWVAVMSYDETKKYYADSVRGRFSISRDNSRNTLYLQMNSLRVEDTAVYFCAKPRLDYLDYFHAADSWGQGTLVSVSS VL: DIVLTQPPSVSVAPGQTATITCGGNYIGSKSVNWYQQRPGHAPVLVVYDDSDRPSGIPDRFSGSNSRSTATTATLTISRVEAGDEADYYCQVWETSEDLWVFGGGTKLTVLG | 1 fold over background | 1.1 fold over background | – | – | – | –
TRL848 (antibody, V domains shown) VH: QVQLLESGGDVVQPGTSLRLSCAASGFSLWTSGMHWVRQAPGKGLEWVAVMSYDETKKYYADSVRGRFSISRDNSRNTLYLQMNSLRVEDTAVYFCAKPRLDYLDYFHAADSWGQGTLVSVSS VL: DIVLTQPPSVSVAPGQTATITCGGNYIGSKSVNWYQQRPGHAPVLVVYDDSDRPSGIPDRFSGSNSRSTATTATLTISRVEAGDEADYYCQVWETSEDLWVFGGGTKLTVLG | 1.1 fold over background | 1.1 fold over background | – | – | – | –
TRL846 (antibody, V domains shown) VH: QVQLVESGGGLVQPGGSLRLSCTVSGFTFNSYAMNWVRQAPGKGLEWVSGIRGSGENTYYAETVKGRFTISRDNSKNTLYLEMNSLRAEDTAVYYCARKWGRMTVFGVATDQLYYFDYWGQGTLVTVSS VL: DITLTQSPATLSVSPGERATLSCRASQSVSSNLAWYQQKPGQAPRLLIYGASNRATDIPARFSGSGSGTEFTLTISSLQSEDFAVYYCQQFNDWPFLTFGGGTKVEIKR | 1.5 fold over background | 1.1 fold over background | – | – | – | –
TRL053 (antibody, V domains shown) VH: QVQLVQSGAEVRKPGSSVKVSCKVSGGIIRKYAINWVRQAPGQGLEWMGGIIAIFNTANYAQKFQGRVTITADESTSTVYMELSSLRSEDTALYYCARGMNYYSDYFDYWGQGSLVTVSP VL: EIVLTQSPGTLSLSPGERATLSCRASQSVRSNNLAWYQHKPGQAPRLLIFGASSRATGIPDRFSGSGSGTDFTLTISRLEPEDFAVYYCQQYGSSPALTFGGGTKVEIKR | – | – | 0.2 nM | 2.8e-05 s⁻¹ | 170000 M⁻¹ s⁻¹ | 10.7 µg/mL
TRL841 (antibody, V domains shown) VH: QVQLVESGGGVVQPGRSLRLSCAASGFTFSSYGIYWVRQAPGKGLEWVAFISYDEINKFYADSVKGRFTISRDNSKNTVFLQMNSLRDEDTAVYYCAKPLRGSYRYFDLWGRGTVVTVSS VL: DIVMTQPPATLSVSPGERATLSCGASQGLGSNLAWYQQKPGQAPRLLIYAASTRATGITARFSGSGSGTEFTLTINSLQSEDFALYYCQQYTYWPLTFGGGTKVEIKR | 1.1 fold over background | 1 fold over background | – | – | – | –
TRL849 (antibody, V domains shown) VH: QVQLVESGPGLVKPSQTLSLTCTVSGGSISNGGYHWSWIRQHPGKGLEWIGNIYYRGSTFYDPSLKSRVTISVDTSKSQFSLKLTSVTAADTAVYYCARMPLANYDLLTGLYIGAFDLWGQGTMVTVSS VL: DIVLTQSPATLSVSPGERATLSCRASQSVNRNLAWFQQIPGQAPRLLIFDASTRAADIPARFSGGGSGAEFTLTVSSLQPEDFAVYYCQQYDKWPPGFGQGTKVEIKR | 1 fold over background | 1.1 fold over background | – | – | – | –
